Results of unrelated studies side by side (data: NIAID ChemDB).

All rows: growth or infection tests; species: Candida tropicalis

Inhibition is in % at the dose shown (toxicity tests: loss of growth or viability). A number after MIC or MFC names an inhibition level or a share of isolates. Neighbouring rows are from separate reports. Zones are inhibition diameters on agar. ECn: concentration that inhibits the pathogen or its effect by n%. An empty or dashed field is not shown.

| structure | strain | setting | tested at | measure | cell line | read by | value |
|---|---|---|---|---|---|---|---|
| O=C(c1ccccc1)C(c1ccccc1)n1cncn1 | - | - | - | MIC90 | - | agar | 64 µg/mL |
| CCC(C)CC(C)CCCCCCCCC(=O)N[C@H]1C[C@@H](O)[C@H](NCCN)NC(=O)[C@@H]2[C@@H](O)CCN2C(=O)[C@H]([C@H](O)CCN)NC(=O)[C@H]([C@H](O)[C@@H](O)c2ccc(O)cc2)NC(=O)[C@@H]2C[C@@H](O)CN2C(=O)[C@H]([C@@H](C)O)NC1=O | 8664 | - | - | MIC | - | broth dilution | 1 µg/mL |
| Cn1c(=S)[nH]c2nc(-c3ccccn3)c(-c3ccccn3)nc2c1=O | - | - | 500 mg/mL | zone | - | - | 0 mm |
| O=C(/C=C/c1cccc(Br)c1)OC1CCN(CC(O)(Cn2cncn2)c2ccc(F)cc2F)CC1 | - | - | - | MIC80 | - | broth dilution | 0.458 µM |
| Fc1ccc(C(Cn2ccnc2)NCc2cccc3ccccc23)cc1 | CBS 94 CA 44 CA 14 | - | - | EC50 | VERO | - | 12 µg/mL |
| O=C(/C=C/c1cccc([N+](=O)[O-])c1)OC1CCN(CC(O)(Cn2cncn2)c2ccc(F)cc2F)CC1 | - | - | - | MIC80 | - | broth dilution | 0.122 µM |
| OC(Cn1cncn1)(Cn1cncn1)c1ccc(F)cc1F | ATCC 750 | - | - | EC50 | - | broth dilution | 3 µM |
| CCOc1ccc2nc3cc(N=C4NC(=O)/C(=C\c5ccc([N+](=O)[O-])cc5)S4)ccc3c(N)c2c1 | ATCC 8302 | - | - | MFC | - | broth dilution | 1000 µg/mL |
| c1ccc(C(c2ccccc2)n2ccnc2)cc1 | - | - | - | MIC90 | - | agar | 1 µg/mL |
| O/N=C\c1ccc(O)cc1 | - | - | - | MFC | - | broth dilution | >7290 µM |
| Nc1nc2nc(-c3ccccn3)c(-c3ccccn3)nc2c(=O)[nH]1 | - | - | 500 mg/mL | zone | - | - | 33 mm |
| CC[C@@H]([C@H](C)O)n1ncn(-c2ccc(N3CCN(c4ccc(OC[C@@H]5CO[C@@](Cn6cncn6)(c6ccc(F)cc6F)C5)cc4)CC3)cc2)c1=O | - | - | - | MIC50 | - | broth dilution | 0.06 µg/mL |
| CC(C)CC(O)C(=O)O | ATCC 750 | - | - | MFC100 | - | broth dilution / visual reading | 72000 µg/mL |
| Clc1ccc(C(c2ccccc2)n2nnc3ccccc32)cc1 | - | - | - | MIC90 | - | agar | >256 µg/mL |
| C(=C\c1ccccc1)/CNC(Cn1ccnc1)c1ccccc1 | CBS 94 CA 44 CA 14 | - | - | EC50 | VERO | - | 25 µg/mL |
| CC(C)C[C@H](N)C(=O)O | ATCC 750 | - | - | MFC100 | - | broth dilution | >72000 µg/mL |
| CC1CC(=O)N(c2ccc(F)cc2F)C1=O | CCC 131-2000 | - | - | MIC | - | broth dilution / turbidity | 250 µg/mL |
| COc1cc(O)c2c(c1)C(=O)c1c(cc3c(c1O)-c1c(cc(C)c(C(=O)NC(CO)C(=O)O)c1O)[C@H](OC1OC(C)C(O)C(OC4OCC(O)C(O)C4O)C1O)C3O)C2=O | 11 isolates | - | - | MIC50 | - | - | 8 µg/mL |
| O=C1C2=C(OC(CI)C2)C(=O)c2ccccc21 | Clinical isolate | - | - | MIC | - | broth dilution | 37.3 µg/mL |
| O=C1N[C@H](Cc2ccccc2)C(=O)N2CCC[C@H]12 | MTCC 184 | - | 32 µg/mL | zone | - | agar diffusion / agar | 30 mm |
| Clc1ccc(C(Cn2ccnc2)NCc2ccc(-c3ccccc3)cc2)cc1 | CBS 94 CA 44 CA 14 | - | - | EC50 | VERO | - | 12 µg/mL |
| Clc1ccc(C(c2ccccc2)n2ccnc2)cc1 | - | - | - | MIC90 | - | agar | 0.5 µg/mL |
| CC(=O)Nc1ccc(C(=O)N/N=C/c2cccc(O)c2)cc1 | ATCC 750 | - | - | EC50 | - | broth dilution | 17 µM |
| CC(C)(O)c1cn(-c2ccc3ccccc3c2)nn1 | URM 916 | - | 2048 µg/mL | inhibition | - | broth dilution | 0% |
| Clc1ccc(C(Cn2ccnc2)OCc2csc3c(Cl)cccc23)c(Cl)c1 | 65 isolates | 48 h | - | MIC50 | - | absorbance | 1 µg/mL |
| Clc1ccc(C(Cn2ccnc2)NCc2cccc3ccccc23)c(Cl)c1 | CBS 94 CA 44 CA 14 | - | - | EC50 | VERO | - | 25 µg/mL |
| CCCCCOc1ccc(-c2cc(-c3ccc(C(=O)N[C@H]4C[C@@H](O)[C@@H](O)NC(=O)[C@@H]5[C@@H](O)[C@@H](C)CN5C(=O)[C@H]([C@H](O)CC(N)=O)NC(=O)[C@H]([C@H](O)[C@@H](O)c5ccc(O)c(OS(=O)(=O)O)c5)NC(=O)[C@@H]5C[C@@H](O)CN5C(=O)[C@H]([C@@H](C)O)NC4=O)cc3)no2)cc1 | RC-501 | - | - | EC50 | - | broth dilution | 0.016 µg/mL |
| CC1(C)O[C@H]2[C@H](O)[C@@H](N=[N+]=[N-])C=C(c3ccc(C=O)cc3)[C@H]2O1 | C 131 | - | 62.5 µg/mL | inhibition | - | broth dilution / turbidity | 18.5% |
| C[C@H]1[C@H](O)[C@@H](C)/C=C/C=C/C=C/C=C/C=C/C=C/C=C/[C@H](O[C@@H]2O[C@H](C)[C@@H](O)[C@H](N)[C@@H]2O)C[C@@H]2O[C@](O)(C[C@@H](O)C[C@@H](O)CC[C@H](O)[C@@H](O)C[C@@H](O)CC(=O)O[C@H]1C)C[C@H](O)[C@H]2C(=O)O | MTCC 1406 | - | - | MFC | - | visual reading | 1 µg/mL |
| CCC(C)n1ncn(-c2ccc(N3CCN(c4ccc(OC[C@H]5CO[C@](Cn6cncn6)(c6ccc(Cl)cc6Cl)O5)cc4)CC3)cc2)c1=O | 10 isolates | - | - | MIC50 | - | - | 0.2 µg/mL |
| O=C(/C=C/c1ccccc1[N+](=O)[O-])OC1CCN(CC(O)(Cn2cncn2)c2ccc(F)cc2F)CC1 | - | - | - | MIC80 | - | broth dilution | 0.122 µM |
| C[C@@H]1CC(=O)N(c2ccc([N+](=O)[O-])cc2)C1=O | CCC 131-2000 | - | - | MIC | - | broth dilution / turbidity | 125 µg/mL |
| CC(C)(O)c1cn(-c2cccc3ccccc23)nn1 | URM 1150 | - | 2048 µg/mL | inhibition | - | - | 0% |
| Clc1ccc(C(c2ccccc2)n2cncn2)cc1 | - | - | - | MFC | - | broth dilution | 64 µg/mL |
| CC(=O)N1CCN(c2ccc(OC[C@H]3CO[C@](Cn4ccnc4)(c4ccc(Cl)cc4Cl)O3)cc2)CC1 | 10 isolates | - | - | MIC50 | - | - | 0.2 µg/mL |
| CC(C)(O)c1cn(-c2ccccc2)nn1 | URM 4790 | - | 2048 µg/mL | inhibition | - | broth dilution | 0% |
| Nc1[nH]c(=O)nc2nc(-c3ccccn3)c(-c3ccccn3)nc12 | - | - | 250 mg/mL | zone | - | - | 24 mm |
| O=C1N[C@@H](Cc2c[nH]c3ccccc23)C(=O)N2CCC[C@@H]12 | MTCC 184 | - | - | MIC100 | - | broth dilution | 4 µg/mL |
| CCCCCCCCCCC(=O)OC1CCN(CC(O)(Cn2cncn2)c2ccc(F)cc2F)CC1 | - | - | - | MIC80 | - | broth dilution | 0.508 µM |
| O=c1[nH]c(=S)[nH]c2nc(-c3ccccn3)c(-c3ccccn3)nc12 | - | - | 500 mg/mL | zone | - | - | 25 mm |
| O=C(Cc1ccccc1)OC1CCN(CC(O)(Cn2cncn2)c2ccc(F)cc2F)CC1 | - | - | - | MIC80 | - | broth dilution | 0.137 µM |
| COc1ccc(C(c2ccc(OC)cc2)n2cncn2)cc1 | - | - | - | MFC | - | broth dilution | >256 µg/mL |
| C=CCc1ccc(OC)c(OC)c1 | 2442 | - | - | MIC90 | - | turbidity | 340 µg/mL |
| CC1CC(=O)N(c2ccc(Br)cc2)C1=O | CCC 131-2000 | - | - | MIC | - | broth dilution / turbidity | 250 µg/mL |
| c1ccc(C(c2ccccc2)n2cncn2)cc1 | - | - | - | MFC | - | broth dilution | >256 µg/mL |